According to ChEMBL document CHEMBL1148728, “Synthesis, biological activity, and crystal structure of potent nonnucleoside inhibitors of HIV-1 reverse transcriptase that retain activity against mutant forms of the enzyme” (J Med Chem, 2007):

Molecular target: Human immunodeficiency virus type 1 reverse transcriptase (Human immunodeficiency virus 1) (UniProt Q72547)
Experiment: Inhibition of HIV1 reverse transcriptase at 1 uM
Summary of the method: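 Wild-type HIV-1 RT enzyme screen with rC-dG template-primer. Percent inhibition is the mean of two experiments, each run in triplicate.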

O=[N+]([O-])c1cccc2c1nc(-c1c(F)cccc1F)n2Cc1c(F)cccc1F
inhibition: 51%
